{"source": "patent US20110112032A1", "about": "“Regulation of Brain Natriuretic Peptide and Catecholamines for the Treatment of Cardiovascular Diseases” (priority 2005, published 2011)", "tested_on": "intrinsic cardiac adrenergic cells", "data": [{"substance": "w-Conotoxin", "values": [{"measurement": "effect on [Ca2+]i transients of intrinsic cardiac adrenergic cells", "result": "did not affect"}]}]}
